# Measurements reported in PubChem BioAssay AID504761 (Drosophila RNAi Screening Center, 2011)
# Test: 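Fly genes whose silencing reduces dengue virus type 2 infection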 (primary screen)
# System: D.Mel-2 cells from Drosophila
# Reagents: long dsRNA against Drosophila genes
# Challenge: infection with dengue virus type 2; dose and infection time not stated
# Measurement: 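Cells stained for dengue envelope protein and imaged; percent of infected cells per well on duplicate plates, ranked by infection, with stained nuclei counted for cell number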
# Reading the numbers: infection score: higher = more virus-infected cells; cell count: higher = more cells in the well
# Hit rule: 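Low infection ranks in the two replicates (chance level up to 0.065) followed by a retest with a 1.5-fold or larger significant decrease, p below 0.05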
# Meaning of the calls: active = confirmed: knock-down lowers infection; inactive = not picked or not confirmed
# In all, the deposit lists about 22,000 reagents; below is an unselected part of those with a known target gene and a result. In the full data, 116 (0.52%) got an active call. 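Calls depend on retest data that are not deposited; infection was ranked per plate without normalising between plates; the unit of the infection score is not given.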 Raw values are not corrected between plates. Entries without a mark were called inactive. A plus sign joins genes that one reagent is predicted to hit. Not stated in the record: the amount of reagent, the time to read-out.
The opening 6 records as a preview:
predicted target,dsRNA,"infection score, replicate 1","infection score, replicate 2","cell count, replicate 1","cell count, replicate 2"
boil,DRSC17872,4.27,7.78,5805,6366
mEFTu1,DRSC06959,17.7,19.7,5063,5470
mEFTu1,DRSC29468,21.2,,5140,428
Spt5,DRSC07556,15.4,10.2,4623,4215
EMC6,DRSC14386,0.87,2.86,6089,5671
CG3982,DRSC23139,4.67,3.46,6698,7082

Results, repeating the preview:
predicted target,dsRNA,"infection score, replicate 1","infection score, replicate 2","cell count, replicate 1","cell count, replicate 2"
boil,DRSC17872,4.27,7.78,5805,6366
mEFTu1,DRSC06959,17.7,19.7,5063,5470
mEFTu1,DRSC29468,21.2,,5140,428
Spt5,DRSC07556,15.4,10.2,4623,4215
EMC6,DRSC14386,0.87,2.86,6089,5671
CG3982,DRSC23139,4.67,3.46,6698,7082
CG3982,DRSC26894,3.57,14.5,6159,6509
CG7800,DRSC16315,5.58,11.3,6146,6192
CG7800,DRSC27419,14.2,4.83,6908,6258
Cluap1,DRSC20637,3.3,3.19,5790,6765
Cluap1,DRSC23735,9.78,4.15,6112,5922
CG17032,DRSC10241,1.09,1.98,6054,6458
Strip,DRSC08194,11.5,11.7,5762,4051
Strip,DRSC29471,8.87,15.8,3945,3713
CG7963,DRSC16355,2.99,6.45,6585,6826
cindr,DRSC14126,6.77,2.65,5683,6329
spz,DRSC17065,1.84,4.48,217,6471
spz,DRSC28820,19.1,15,5970,5754
Acsf3,DRSC18146,2.7,7.43,6344,6567
CG7222,DRSC07019,1.4,2.17,6054,6530
CG8565,DRSC20112,3.31,9.4,6640,6200
Rac1,DRSC08688,1.29,1.31,6224,6356
Rac1,DRSC25131,3.79,12.8,6783,6970
ND-30,DRSC08243,19.9,17.6,4645,3544
CG32751,DRSC21770,15.9,1.97,4515,6508
CG4998,DRSC10466,1.93,3.02,5903,6249
CG4998,DRSC22911,2.38,5.94,6806,6448
Snx16,DRSC06984,13.7,6.57,6348,6121
CG31051,DRSC15034,6.07,13.2,5984,6211
CG31751,DRSC02464,2.23,6.19,6088,6093
CG31751,DRSC02465,9.5,1.32,4810,6268
Ste:CG33238 + Ste:CG33241 + Ste:CG33244 + 10 more,DRSC26515,3.91,2.15,6285,6943
Bub1,DRSC23158,1.51,1.83,7267,6930
Bub1,DRSC27436,9.08,12.5,6144,6798
Gyc88E,DRSC15547,2.8,19.2,5721,5955
GlcAT-P,DRSC10603,8.62,5.53,6603,6794
GlcAT-P,DRSC10604,1.67,1.54,6404,6021
CG15576,DRSC18064,6.16,0.44,5713,7247
CG7579,DRSC10885,0.2 (active),0.55,5864,6193
CG6665,DRSC07006,10.1,7.13,6587,7081
CG1774,DRSC15258,1.16,1.12,5768,6586
beg,DRSC10923,7.18,9.36,6599,6851
CG10214,DRSC14213,3.93,5.99,6011,6225
CG14323,DRSC14802,1.39,7.2,5880,5012
Prp5,DRSC19975,7.27,2.78,6133,6511
Prp5,DRSC27434,19.4,13.7,6354,6031
CG7943,DRSC16351,2.39,4.11,6372,6843
Dop1R1,DRSC13021,7.67,5.8,6321,5400
Dop1R1,DRSC16652,2.6,5.63,5193,6343
Dop1R1,DRSC23514,0.62,0.33,6243,6631
CG13613,DRSC14616,4.18,5.14,6025,7022
mms4,DRSC06249,2.65,9.12,6805,6819
CG42457 (retired record) + cpo,DRSC13273,6.5,4.46,6014,3474
CG42457 (retired record) + cpo,DRSC23006,0.53,1.23,6360,6579
CG42457 (retired record) + cpo,DRSC25799,0.97,1.67,6470,6780
Ttc1,DRSC15016,3.29,5.48,5864,6382
Ttc1,DRSC22469,1.8,4.27,5984,6912
Ttc1,DRSC26111,0.5 (active),1.1,5768,5358
GstE9,DRSC06679,4.83,7.55,6125,4877
GstE9,DRSC29204,14.3,9.53,5864,2444
fbl,DRSC29115,0.26,,386,256
CG10657,DRSC09768,5.03,5.08,6149,6104
CG10657,DRSC27483,16.4,22.9,5394,6874
CG16723,DRSC15138,0.22,13.9,450,4502
CG16723,DRSC28144,16.2,14.9,6402,5196
CG8564,DRSC10997,12.1,5.47,6021,6360
RhoGAP92B,DRSC14507,2.13,5.89,5719,5569
RhoGAP92B,DRSC15637,11,9.37,4394,5787
CG4004,DRSC19791,1.57,4.85,6295,6347
CG4004,DRSC19882,1.07,4.87,374,6018
CG4004,DRSC26904,11.3,3.25,6706,6803
Or85d,DRSC16767,23.6,31.6,4917,4706
Or85d,DRSC26656,6.25,0.74,5568,5242
out,DRSC19347,8.68,11,6484,6752
out,DRSC28913,9.41,16.8,5631,6098
